The values below come from patent US4690926A, “Boxazomycin A and B, new antibiotics containing benzoxazole nucleus” (Bristol-Myers Company, priority 1986, dated 1987).

The assay concerns Gram-positive aerobic and Gram-positive/Gram-negative anaerobic organisms. The assay can be described thus: In vitro antibacterial spectrum (in words). It is filed as cell-based. Particulars: for effect of acidic medium on activity: acidic media; for antibacterial spectrum: in vitro.

Regarding `Cc1ncc(O)c(-c2nc3c(C(N)=O)c(O)cc(C)c3o2)n1` [Boxazomycin B], the “effect of acidic medium on activity” value is reported as “enhanced activity in acidic media, especially against anaerobic bacteria”; the antibacterial spectrum result is “inhibiting Gram-positive aerobic and Gram-positive/Gram-negative anaerobic organisms”.
Consider `Cc1cc(O)c(C(N)=O)c2nc(-c3nc(CO)ncc3O)oc12` [Boxazomycin A], for which the “effect of acidic medium on activity” value is recorded as “enhanced activity in acidic media, especially against anaerobic bacteria”; the antibacterial spectrum entry is “inhibiting Gram-positive aerobic and Gram-positive/Gram-negative anaerobic organisms”.
